Pooled drug test results. Numbers come from NIAID ChemDB, via PubChem.

Shared fields: whole-cell or culture tests; organism: HIV-1

Blank or dashed fields: not listed here. ECn: concentration that inhibits the pathogen or its effect by n%. Rows are shuffled and stem from different studies. Two numbers with a dash give a range or band.

smiles	method	strain or isolate	conditions	cells	read-out	mutations	result
Cc1cn([C@H]2C=C[C@@H](CO)O2)c(=O)[nH]c1=O	cytopathic effect / MTT	IIIB WT		MT-4	EC50		1 µM
Cc1cn([C@H]2C[C@H](N=[N+]=[N-])[C@@H](CO)O2)c(=O)[nH]c1=O	p24			U1	EC50		>0.1 µM
Cc1ccnc2c1NC(=O)c1cccnc1N2C1CC1	cytopathic effect / MTT			MT-4	EC50	RT-Y181C	10 µM
CCCC1(CCc2ccc(O)cc2)CC(O)=C(Sc2cc(C)c(OCCO)cc2C(C)(C)C)C(=O)O1	cytopathic effect / MTT	IIIB		CEM	EC50		4.3 µM
O=C(Oc1cc(O)c2c(c1)O[C@H](c1ccc(O)c(O)c1)[C@@H](O)C2)c1cc(O)c(O)c(O)c1				C8166	EC50		10 µg/mL
Cc1cc(SC2=C(O)C[C@](CCc3ccc(N)cc3)(C(C)C)OC2=O)c(C(C)(C)C)cc1CO	cytopathic effect / MTT	IIIB		CEM	EC50		19.8 µM
CN1C(=O)N(Cc2ccccc2)S(=O)(=O)c2cscc21	syncytia	IIIB		CEM	EC50	RT-Y181C	>324 µM
C[C@@H]1O[C@@H](Oc2c(-c3ccc(O)c(O)c3)oc3cc(O)cc(O)c3c2=O)[C@H](O)[C@H](O)[C@H]1O				C8166	EC50		50 µg/mL
Cc1cn([C@H]2C[C@H](N=[N+]=[N-])[C@@H](COC(=O)C3CCC(=O)N3C)O2)c(=O)[nH]c1=O	cytopathic effect / XTT			CEM + CME-SS	EC50		0.081 µM
Cc1cn([C@H]2C[C@H](N=[N+]=[N-])[C@@H](CO)O2)c(=O)[nH]c1=O	p24 / ELISA			Primary T lymphocytes	EC90	4xAZT	53.3 µM
Cc1c(C#N)cc(C(F)F)cc1Oc1c(C(F)(F)C(F)F)ncn(Cc2cc(F)c[nH]c2=O)c1=O	RT activity / fluorescence				EC50		0.024 µM
Cc1cn([C@H]2C[C@H](N=[N+]=[N-])[C@@H](COC(=O)C3CNC(=O)N3)O2)c(=O)[nH]c1=O	cytopathic effect / XTT			CEM + CME-SS	EC50		0.0076 µM
CC(C)CN(C[C@@H](O)[C@H](Cc1ccccc1)NC(=O)O[C@H]1CCOC1)S(=O)(=O)c1ccc(N)cc1		HXB2		MT-4	EC50	PR-M46I I47V I50V	2.135 µM
Cc1cc(SC2=C(O)CC(CCc3ccc(O)cc3)(C3CC3)OC2=O)c(C(C)(C)C)cc1CO	cytopathic effect / MTT	IIIB		CEM	EC50		1.6 µM
Nc1nc2c(ncn2[C@H]2CO[C@@H](CO)O2)c(=O)[nH]1		HXB2D (RT D67N K70R T215Y)		MT-2	EC50	RT-D67N K70R T215Y	0.0027 µM
CN1CCC(c2c(O)cc(O)c3c(=O)cc(-c4ccccc4Cl)oc23)[C@H](O)C1	MTT			MT-4	EC50		>0.27 µM
CCO/N=C(\c1ccc(Br)cc1)C1CCN(C2(C)CCN(C(=O)c3c(C)cc[n+]([O-])c3C)CC2)CC1		301657 Clinical isolates		PBMC	EC50		<0.043 µM
O=C(O)P(=O)(O)O	RT activity	IIIB	14 d	PBL	EC50		<256 µM
C#CCN1C(=O)N(Cc2ccccc2)S(=O)(=O)c2cscc21	syncytia	IIIB		CEM	EC50	RT-K103N	>60 µM
Cc1cn([C@H]2C[C@H](N=[N+]=[N-])[C@@H](CO)O2)c(=O)[nH]c1=O	cytopathic effect / XTT	LAV		CEM + CEM-SS	EC50		0.002 µM
O=C(Nc1cc(S(=O)(=O)O)cc2cc(S(=O)(=O)O)c(N=Nc3ccc(N=Nc4c(S(=O)(=O)O)cc5cc(S(=O)(=O)O)cc(NC(=O)c6cccc(Cl)c6Cl)c5c4O)cc3)c(O)c12)c1ccc(Cl)cc1Cl		BaL		PBMC	EC50		0.03–0.12 µg/mL
O=C(CCCCCCCCCCC(=O)Nc1cc(S(=O)(=O)O)cc2cc(S(=O)(=O)O)cc(O)c12)Nc1cc(S(=O)(=O)O)cc2cc(S(=O)(=O)O)cc(O)c12	cytopathic effect / MTT	IIIB		MT-4	EC50		44 µM
Nc1nc(NC2CC2)c2ncn([C@H]3C=C[C@@H](CO)C3)c2n1	cytopathic effect / XTT	HXB2D		MT-2	EC50		0.0003 µM
CC(C)[C@H](NC(=O)c1ccc2ccccc2n1)C(=O)N[C@@H](Cc1ccccc1)[C@H](O)CN1CC[C@@H](OCc2ccncc2)C[C@H]1C(=O)NC(C)(C)C	p24 / ELISA / antigen	VR949		PBMC	EC50		0.011 µM
Cc1cn([C@H]2C[C@H](N=[N+]=[N-])[C@@H](COC(=O)CCC(=O)OC3CN(c4ccccc4)C(=O)N(c4ccccc4)C3)O2)c(=O)[nH]c1=O	cytopathic effect / XTT			CEM + CME-SS	EC50		0.016 µM
O=c1cc(-c2ccccc2)oc2cc(O)cc(O)c12				C8166	EC50		20 µg/mL
Cc1ccnc2c1N(CN1CCN(Cc3ccccc3)CC1)C(=O)c1cccnc1N2C1CC1	cytopathic effect / XTT			CEM	EC50		0.523 µM
CCN1C(=O)N(Cc2ccc(OC)cc2OC)S(=O)(=O)c2cscc21	syncytia	IIIB		CEM	EC50		>261.5 µM
Cc1cn([C@H]2C[C@H](N=[N+]=[N-])[C@@H](CO)O2)c(=O)[nH]c1=O	syncytia	IIIB		CEM	EC50	RT-L100I	0.002 µg/mL
O=S(=O)(O)c1cc(NS(=O)(=O)c2ccc(-c3ccc(S(=O)(=O)Nc4cc(S(=O)(=O)O)c5cccc(S(=O)(=O)O)c5c4)cc3)cc2)cc2c(S(=O)(=O)O)cccc12	cytopathic effect / MTT	IIIB		MT-4	EC50		18 µM
Cc1ccnc2c1NC(=O)c1cccnc1N2C1CC1	cytopathic effect / XTT	IIIB		CEM + CEM-SS	EC50		0.03 µM
CC(C)(C)OC(=O)N[C@@H](Cc1ccccc1)[C@H](O)CNC[C@@H](O)[C@H](Cc1ccc(OCC(=O)N2CCOCC2)cc1)NC(=O)OC(C)(C)C	p24	A018C		PBMC	EC50		0.11 µM
Cc1cc(C)c(Nc2ccc([N+](=O)[O-])c(NC3CCN(Cc4ccc(S(N)(=O)=O)cc4)CC3)n2)c(C)c1	MTT	IIIB		MT-4	EC50		0.0051 µg/mL
Cc1cn([C@H]2C=C[C@@H](CO)O2)c(=O)[nH]c1=O	p24 / ELISA	LAI		Primary T lymphocytes	EC50		1 µM
CCS(=O)(=O)C[C@H]1O[C@@H](n2cc(C)c(=O)[nH]c2=O)C[C@@H]1N=[N+]=[N-]		IIIB		MT-4	EC50		≥2.3 µg/mL
c1cc(CN2CCCNCCNCCCNCC2)nc(CN2CCCNCCNCCCNCC2)c1	cytopathic effect / MTT	IIIB		MT-4	EC50		0.03 µg/mL
Cc1cc(=O)oc2c3c(ccc12)SC[C@H](OC(=O)C12CCC(C)(C(=O)O1)C2(C)C)[C@@H]3OC(=O)C12CCC(C)(C(=O)O1)C2(C)C	p24	IIIB		H9	EC50		0.141 µM
C[C@H](Cn1cnc2c(N)ncnc21)OCP(=O)(O)O	syncytia	IIIB		CEM	EC50	RT-Y181C	1.1 µg/mL
Cc1cc(C#N)cc(C)c1Oc1ccc([N+](=O)[O-])c(NC2CCN(Cc3ccc(C(N)=O)cc3)CC2)n1	MTT	IIIB		MT-4	EC50	Resistant strain (K103N + Y181C)	>27 µM
Cc1ncnc(C)c1C(=O)N1CCC(C)(N2CCN([C@@H](Cc3ccccc3)c3ccc(C(F)(F)F)cc3)[C@@H](C)C2)CC1		301657 Clinical isolates		PBMC	EC50		<0.0006 µM
Cc1cn([C@H]2C[C@H](N=[N+]=[N-])[C@@H](CO)O2)c(=O)[nH]c1=O	cytopathic effect / XTT	HXB2D		MT-2	EC50		0.00018 µM
N#CCN1C(=O)N(Cc2ccccc2)S(=O)(=O)c2cscc21	syncytia	IIIB		CEM	EC50		1.2 µM
CCCCCCCCCCCCCCCCOC[C@H](CCl)OP(=O)(O)OCC[N+](C)(C)C	RT activity	IIIB		H9	EC50		~1 µM
Cc1ccnc2c1N(CN1CCNCC1)C(=O)c1cccnc1N2C1CC1	cytopathic effect / XTT			CEM	EC50		0.62 µM
Cc1ccnc2c1NC(=O)c1cccnc1N2C1CC1	cytopathic effect / MTT	IIIB		MT-4	EC50		>0.03 µM
CC(C)(C)NC(=O)[C@@H]1C[C@@H]2CCCC[C@@H]2CN1C[C@@H](O)[C@H](Cc1ccccc1)NC(=O)[C@H](CC(N)=O)NC(=O)c1ccc2ccccc2n1	ELISA	MN		C8166	EC50		0.001 µg/mL
Cc1ccnc2c1NC(=O)c1cccnc1N2C1CC1	p24	Subtype B isolate BR48		PM1	EC50		0.04 µg/mL
Cc1nc(N)c(Cn2cnc(C(F)(F)C(F)(F)F)c(Oc3cc(C(F)F)cc(C#N)c3C)c2=O)c(=O)[nH]1	GFP		pseudotyped	PBMC	EC50		0.1141 µM
Cc1cc2c(C(C)C)c(O)c(O)c(C=O)c2c(O)c1-c1c(C)cc2c(C(C)C)c(O)c(O)c(C=O)c2c1O	p24 / ELISA	IIIB		MT-4	EC50		1 µg/mL
NCCCCN(CC1NC[C@@H]2CC[C@H]1N2CC[C@H](NC(=O)C1CCC(F)(F)CC1)c1ccccc1)[C@H]1CCCc2cccnc21	visual reading	BaL		MAGI	EC90		>100 µM
O=c1cc(-c2ccc(O)cc2)oc2cc(O)cc(O)c12	p24	IIIB		H9	EC50		9 µg/mL
O=C(c1ccccc1)N1C(=O)N(Cc2ccccc2)S(=O)(=O)c2cscc21	cytopathic effect / MTT	IIIB		MT-4	EC50		>133 µM
c1cc(CN2CCCNCCNCCCNCC2)ccc1CN1CCCNCCNCCCNCC1	cytopathic effect / MTT	RF		MT-4	EC50		0.001 µg/mL
CC(=O)O[C@@]12C[C@@H](C)[C@@]3(O)[C@@H](C=C(CO)C[C@]4(O)C(=O)C(C)=C[C@@H]34)[C@@H]1C2(C)C	p24 / ELISA	74V		C8166	EC50		2.457 µM
Cc1ccnc2c1NC(=O)c1cccnc1N2C1CC1	syncytia	IIIB		CEM	EC50	RT-V179D	0.02 µg/mL
COc1ccc(N2CCN(CN3C(=O)c4cccnc4N(C4CC4)c4nccc(C)c43)CC2)cc1	cytopathic effect / XTT			CEM	EC50		0.12 µM
Cc1ccnc2c1NC(=O)c1cccnc1N2C1CC1	cytopathic effect / XTT	CLADE A	clinical isolate	PBMC	EC50		0.06 µM
Cc1cc(C#N)cc(C)c1Oc1nc(Nc2ccc(C#N)cc2)nc(N)c1Br	MTT			MT-4	EC50	E138K	0.006 µM
Nc1ncnc2c1ncn2CCOCP(=O)(O)O	p24	RT P119S L214F		MT-2	EC50	RT-P119S L214F	1.3 µM
Cc1cn([C@H]2C[C@H](N=[N+]=[N-])[C@@H](COC(=O)C3CCC(=O)N3)O2)c(=O)[nH]c1=O	cytopathic effect / XTT			CEM + CME-SS	EC50		0.018 µM
CN(CCO)c1ccc(-c2nc3ccccc3c(=O)[nH]2)cc1	MTT			MT-4	EC50		>42.2 µM
O=c1[nH]cnc2c1ncn2[C@@H]1O[C@H](CO)C[C@@H]1F	p24	HXB2D		MT-2	EC50		11 µM
Cc1cc(C)c(Oc2ccc([N+](=O)[O-])c(NC3CCN(Cc4ccc(S(C)(=O)=O)cc4)CC3)n2)c(C)c1	MTT	IIIB		MT-4	EC50		0.018 µg/mL
O=c1[nH]c(-c2ccc(O)c(O)c2O)nc2ccccc12	MTT			MT-4	EC50		>9.2 µM
Fc1cccc(F)c1C1SCc2nc3ccccc3n21	cytopathic effect			CEM	EC50	RT-K103N	15.6 µM
Nc1ncnc2c1ncn2[C@@H]1O[C@H](CO)C[C@@H]1F	p24	K65R(RT-K65R)		MT-2	EC50	RT-K65R	12 µM
Cc1cc(C#N)cc(C)c1Oc1ccc(N)c(NC2CCN(Cc3ccc(S(N)(=O)=O)cc3)CC2)n1	MTT	IIIB		MT-4	EC50		0.053 µg/mL
Cc1cn([C@H]2C[C@H](N=[N+]=[N-])[C@@H](CO)O2)c(=O)[nH]c1=O	cytopathic effect / XTT			CEM + CME-SS	EC50		0.018 µM
CCc1nc([N+](=O)[O-])c(N2CCN(C(=O)CNCCCCCCn3c(=O)c(C)cn([C@H]4C[C@H](N=[N+]=[N-])[C@@H](CO)O4)c3=O)CC2)n1Cc1ccccc1		IIIB		MT-4	EC50		>48 µg/mL
O=C1Nc2cscc2S(=O)(=O)N1c1cccc(Cl)c1	syncytia	IIIB		CEM	EC50		>63.5 µM
CC(C)=CCN1Cc2cccc3[nH]c(=S)n(c23)C[C@@H]1C	trypan blue	IIIB		MT-4	EC50		0.021 µM
CCN1C(=O)N(Cc2ccccc2)S(=O)(=O)c2cscc21	syncytia	IIIB		CEM	EC50	RT-E138K	>310 µM
Cc1cc(SC2=C(O)C[C@](CCc3ccc(O)cc3)(C(C)C)OC2=O)c(C(C)(C)C)cc1CO	cytopathic effect / MTT	IIIB		CEM	EC50		17 µM
Cc1ccnc2c1N(CN1CCN(c3ccccc3)CC1)C(=O)c1cccnc1N2C1CC1	cytopathic effect / XTT			CEM	EC50		0.0636 µM
O=C1N(Cc2ccccc2)c2cscc2S(=O)(=O)N1Cc1ccccc1	syncytia	IIIB		CEM	EC50	RT-V106A	≥10 µM